The values below come from article PMC4489319 (ACS Infectious Diseases, 2015).

The data set relates to C[C@H](CCC(=O)SCCNC(=O)CCNC(=O)[C@H](O)C(C)(C)COP(=O)(O)OP(=O)(O)OC[C@H]1O[C@@H](n2cnc3c(N)ncnc32)[C@H](O)[C@@H]1OP(=O)(O)O)[C@H]1CC[C@H]2[C@@H]3CCC4=CC(=O)CC[C@]4(C)[C@H]3CC[C@]12C. Nature of the data set: purified protein. As to conditions: pH 8.5; 25.0 °C.

As a reminder, the Km is the concentration of substrate that gives half-maximal velocity. Broadly, the kcat/Km is the second-order rate constant that governs catalysis at low substrate concentration. In the case of “ChsE3 (Mycobacterium tuberculosis H37Rv)”, the Km stood at 28 ± 8 µM and the kcat/Km worked out at 180000 M⁻¹ s⁻¹.
